Compound potency records, mixed from different reports. Data source: NIAID ChemDB in PubChem.

Shared fields: enzyme or target tests; species: HIV-1; target: Reverse transcriptase

ICn: concentration for n% inhibition.

structure | changes | measure | strain | read by | value
CCN1c2ncc(CCOc3ccc4cc(CC(=O)O)ccc4c3C)cc2C(=O)N(C)c2cccnc21 | RT-K103N Y181C | IC50 |  | nucleotide incorporation / radiometric | 0.1–1 µM
CCN1c2ncc(CCOc3ccc(-c4nn[nH]n4)cc3C)cc2C(=O)N(C)c2cccnc21 | RT-K103N Y181C | IC50 | IIIB | nucleotide incorporation / radiometric | >0.1 µM
O=[N+]([O-])c1ccc2c(c1)CN(c1nn3c(C4CC4)nnc3c3ccccc13)CC2 |  | IC90 | 98US_MSC5016 | RT activity / fluorescence | 20.3 µM
CC(C)(C)c1ccc(-n2nnnc2SCC(=O)Nc2ccc(NC(=O)Cc3c[nH]c4ccccc34)cc2Cl)c(Cl)c1 |  | IC50 | WT | PicoGreen / fluorescence | <1 µM
Cc1nnc2c3ccccc3c(N3CCc4ccc(C(=O)O)cc4C3)nn12 |  | IC50 | KER2008 | RT activity / fluorescence | 16.1 µM
COC(=O)c1ccc(-c2ccc(NC(=O)CSc3nnnn3-c3ccc(C)cc3Cl)c(Cl)c2)cc1 | RT-K103 Y181C | IC50 |  | PicoGreen / fluorescence | <1 µM
CCN1c2ncc(CCOc3ccc(/C=C(\C)C(=O)O)c4ccccc34)cc2C(=O)N(C)c2ccc(Cl)nc21 | RT-Y188L | IC50 |  | nucleotide incorporation / radiometric | >1 µM
CCN1c2ncc(CCOc3ccc(S(=O)(=O)c4ccc(C(=O)O)cc4)cc3C)cc2C(=O)N(C)c2cccnc21 |  | IC50 | IIIB | nucleotide incorporation / radiometric | <0.05 µM
CC(C)(C)c1ccc(-n2nnnc2SCC(=O)Nc2ccc(NC(=O)Cc3ccccc3[N+](=O)[O-])cc2Cl)c(Cl)c1 | RT-K103 Y181C | IC50 |  | PicoGreen / fluorescence | <1 µM
CCN1c2ncc(CCOc3ccc(NS(C)(=O)=O)c4ccccc34)cc2C(=O)N(C)c2ccc(F)nc21 | RT-Y188L | IC50 |  | nucleotide incorporation / radiometric | 0.1–1 µM
Cc1ccc(-n2nnnc2SCC(=O)Nc2ccc(C#CC(C)(C)O)cc2Cl)c(Cl)c1C(F)(F)F |  | IC50 | WT | PicoGreen / fluorescence | <1 µM
CCN1c2ncc(CCOc3ccc(-c4ccc(C(=O)O)c(Cl)c4)cc3C)cc2C(=O)N(C)c2cccnc21 | RT-K103N Y181C | IC50 | IIIB | nucleotide incorporation / radiometric | 0.05–0.1 µM
CC(C)(C#Cc1ccc(NC(=O)CSc2nnnn2-c2ccccc2Cl)c(Cl)c1)C(=O)O |  | IC50 | WT | PicoGreen / fluorescence | <1 µM
Nc1ccc2c(c1)CN(c1nn3c(C4CC4)nnc3c3ccccc13)CC2 |  | IC50 | 98US_MSC5016 | RT activity / fluorescence | 0.26 µM
CCN1c2ncc(CCOc3ccc(-c4ccc(O)c(C(=O)O)c4)cc3C)cc2C(=O)N(C)c2cccnc21 |  | IC50 | IIIB | nucleotide incorporation / radiometric | <0.05 µM
CCN1c2ncc(CCOc3ccc(S(=O)(=O)NC(C)=O)c4ccccc34)cc2C(=O)N(C)c2cccnc21 | RT-Y188L | IC50 |  | nucleotide incorporation / radiometric | >1 µM
CC(C)(C#Cc1ccc(NC(=O)CSc2nnnn2-c2ccc(C3CC3)cc2Cl)c(Cl)c1F)OCCO |  | IC50 | WT | PicoGreen / fluorescence | <1 µM
CCN1c2ncc(CCOc3ccc(NC(C)=O)cc3C)cc2C(=O)N(C)c2cccnc21 |  | IC50 | IIIB | nucleotide incorporation / radiometric | <0.05 µM
CCN1c2ncc(CCOc3ccc(CC(=O)O)c4c3CCCC4)cc2C(=O)N(C)c2ccc(Cl)nc21 | RT-V106A | IC50 |  | nucleotide incorporation / radiometric | 0.1–1 µM
CC(C)(C#Cc1ccc(NC(=O)CSc2nnnn2-c2ccc(C3CC3)cc2Cl)c(Cl)c1)NCc1nccs1 | RT-K103 Y181C | IC50 |  | PicoGreen / fluorescence | <1 µM
CCN1c2ncc(CCOc3ccc(-c4cccc(C(=O)O)c4)cc3C)cc2C(=O)N(C)c2cccnc21 | RT-K103N Y181C | IC50 | IIIB | nucleotide incorporation / radiometric | <0.05 µM
CCN1c2ncc(CCOc3ccc(CC(=O)O)c4ccccc34)cc2C(=O)N(C)c2ccc(Cl)nc21 | RT-Y188L | IC50 |  | nucleotide incorporation / radiometric | >1 µM
CCN1c2ncc(CCOc3ccc(-c4ccc(C(=O)O)cc4)cc3C)cc2C(=O)N(C)c2cccnc21 | RT-K103N Y181C | IC50 | IIIB | nucleotide incorporation / radiometric | <0.05 µM
CC(C)(C#Cc1ccc(NC(=O)CSc2nnnn2-c2ccc(C(C)(C)C)cc2Cl)c(Cl)c1)OCC(=O)Nc1ccc(/C=C/C(=O)O)cc1 |  | IC50 | WT | PicoGreen / fluorescence | <1 µM
CCN1c2ncc(CCOc3ccc(-c4ncc[nH]4)cc3C)cc2C(=O)N(C)c2cccnc21 | RT-K103N Y181C | IC50 | IIIB | nucleotide incorporation / radiometric | <0.05 µM
Cc1cc(OCC(=O)O)ccc1-c1ccc(NC(=O)CSc2nnnn2-c2ccc(C(C)(C)C)cc2Cl)c(Cl)c1 |  | IC50 | WT | PicoGreen / fluorescence | <1 µM
Nc1ccc2c(c1)CN(c1nn3c(C(F)F)nnc3c3ccccc13)CC2 |  | IC50 | IIIB | RT activity / fluorescence | 0.61 µM

Again, the opening 4 rows:

structure	changes	measure	strain	read by	value
CCN1c2ncc(CCOc3ccc4cc(CC(=O)O)ccc4c3C)cc2C(=O)N(C)c2cccnc21	RT-K103N Y181C	IC50		nucleotide incorporation / radiometric	0.1–1 µM
CCN1c2ncc(CCOc3ccc(-c4nn[nH]n4)cc3C)cc2C(=O)N(C)c2cccnc21	RT-K103N Y181C	IC50	IIIB	nucleotide incorporation / radiometric	>0.1 µM
O=[N+]([O-])c1ccc2c(c1)CN(c1nn3c(C4CC4)nnc3c3ccccc13)CC2		IC90	98US_MSC5016	RT activity / fluorescence	20.3 µM
CC(C)(C)c1ccc(-n2nnnc2SCC(=O)Nc2ccc(NC(=O)Cc3c[nH]c4ccccc34)cc2Cl)c(Cl)c1		IC50	WT	PicoGreen / fluorescence	<1 µM

Conditions beyond the fields shown may differ between rows. An empty or dashed field is not shown. Two numbers with a dash give a range or band.